From CN109384844A, “一种抗金黄色葡萄球菌α溶血素单克隆抗体及应用” (INST OF BASIC MEDICAL SCIENCES THE ACADEMY OF MILITARY …, dated 2019)

Target: T1, Hla蛋白 (金黄色葡萄球菌α溶血素, 具有His-tag标签) (Staphylococcus aureus)
T1 chain: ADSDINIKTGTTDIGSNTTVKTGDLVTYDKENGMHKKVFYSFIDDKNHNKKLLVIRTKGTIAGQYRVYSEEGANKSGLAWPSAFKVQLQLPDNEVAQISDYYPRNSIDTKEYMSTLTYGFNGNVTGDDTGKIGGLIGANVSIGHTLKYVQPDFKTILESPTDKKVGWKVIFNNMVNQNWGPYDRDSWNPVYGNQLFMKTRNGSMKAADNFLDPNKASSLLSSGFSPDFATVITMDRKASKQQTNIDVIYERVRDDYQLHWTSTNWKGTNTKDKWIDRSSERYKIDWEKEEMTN
Experiment: cell-based or functional assay

B1: AAH-1抗体 (antibody, V domains shown)
VH: QMQLVQSGAEIRRPGSLVKVSCQASGGSFKNFALNWVRQAPGLGLQWMGSITPFLNVPTYAQQFQGRVTMSTDTSTSTAYMVLRRLTSDDTAVYYCARGNSLLDYWGQGTLVTVSS
VL: EIVLTQSPATLSVSPGDGATLSCRASQSVSGNLAWYQKKPGQAPRLLIYDTSIRAAGVPPRFSGSGSGTEFTLTISSLQSEDFAVYYCQQYHNLPPLTFGPGTKLEIK
- 抑制Hla蛋白对兔红细胞的溶血活性 (OD405 of supernatant): 1 molar ratio AAH-1:Hla for complete inhibition
